These results are taken from PubChem BioAssay AID1159558 (GlaxoSmithKline (GSK), 2015).

Protein sequences, listed by entry. Tags and fused reporters are not part of them.
UniProt Q7Z1V1, whole entry, looked up: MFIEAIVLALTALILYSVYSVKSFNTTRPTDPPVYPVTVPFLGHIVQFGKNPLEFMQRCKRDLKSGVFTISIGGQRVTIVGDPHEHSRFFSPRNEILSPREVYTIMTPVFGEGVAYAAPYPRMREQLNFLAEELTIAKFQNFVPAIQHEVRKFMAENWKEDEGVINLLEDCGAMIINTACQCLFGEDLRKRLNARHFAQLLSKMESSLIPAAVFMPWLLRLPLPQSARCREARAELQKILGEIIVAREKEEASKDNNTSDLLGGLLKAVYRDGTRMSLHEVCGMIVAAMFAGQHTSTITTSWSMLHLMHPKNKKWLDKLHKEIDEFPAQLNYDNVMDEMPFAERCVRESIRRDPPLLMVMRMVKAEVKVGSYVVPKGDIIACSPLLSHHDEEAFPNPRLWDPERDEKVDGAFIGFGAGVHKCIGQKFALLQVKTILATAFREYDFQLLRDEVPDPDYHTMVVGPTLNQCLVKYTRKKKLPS

The target of this test is Sterol 14-alpha demethylase (Trypanosoma cruzi (strain CL Brener)) (UniProt Q7Z1V1). As to the kind of experiment: TcCYP51 inhibitors, dose response, mechanism study for T. cruzi antiparasitic project, biochemical, recombinant enzyme (AID 1159558).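 Note: enzyme in bacterial membranes with Anopheles gambiae CYP reductase and cytochrome b5 partners.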 The settings on record: recombinant T. cruzi CYP51, BOMCC fluorescence.

Molecules are shown by their SMILES.

For the compound `CC(C)(C)c1ccc(NC2(C(N)=O)CCN(Cc3ccccc3)CC2)cc1`, the IC50 was 5 µM.

The term IC50 denotes the point on the concentration scale where inhibition reaches its midpoint.
